Data taken from publication PMC9888711, “Pneumococcal capsule expression is controlled through a conserved, distal cis-regulatory element during infection” (PLOS Pathogens, 2023).
For at least one entry, the source does not settle the construct or the ends of the probe. At least one verdict was read from the data and is not stated in words by the source.

Experiments:
[1] = target: SpxRDBD (Streptococcus pneumoniae D39) (UniProt A0A0H2ZR90); experiment: EMSA; conditions: EMSA: 20 mM HEPES pH 7.2, 50 mM NaCl, 5 mM MgCl2, 1 mM CaCl2, 0.1 mM EDTA, 12% glycerol, 10 mM DTT, 0.5 uM DNA, 400 ng poly(dI-dC); recombinant protein; residues 1-63; protein details: His6-SUMO removed by Ulp1; label: 6-FAM forward
[2] = target: CpsR (Streptococcus pneumoniae D39) (UniProt A0A0H2ZMA3); experiment: EMSA; conditions: EMSA: 20 mM HEPES pH 7.2, 50 mM NaCl, 5 mM MgCl2, 1 mM CaCl2, 0.1 mM EDTA, 12% glycerol, 10 mM DTT, 0.5 uM DNA, 400 ng poly(dI-dC); recombinant protein; protein details: His6-SUMO removed by Ulp1; label: 6-FAM forward
[3] = target: SpxR (Streptococcus pneumoniae D39) (UniProt A0A0H2ZR90); experiment: negative stain EM; conditions: 50 mM NaCl, C3 trimer wheel, low resolution; recombinant protein; protein details: His6-SUMO removed by Ulp1

Sequence | binding result [1] | binding result [2] | binding result [3]
GTGTACTATATTATATTGAAA (double strand) [21-CE] | binds | binds | –
TGTGTACTATATTATATTGAAACTAGAATAGTACACA (double strand) [37-CE] | – | – | binds
GAAACTAGAATAGTACAC (double strand) [37-CE 3' IR+3] | binds | – | –
TGAAACTAGAATAGTACAC (double strand) [37-CE 3' IR+4] | binds | – | –
GTGTACTATATTATATTGA (double strand) [37-CE 5' IR+4] | binds | – | –
TGTACTATATTATATTG (double strand) [37-CE 5' IR+3] | binds | – | –
